Biological target: T1, Thymidylate kinase (Mycobacterium tuberculosis, UniProt P9WKE1)
T1 sequence (P9WKE1 whole entry): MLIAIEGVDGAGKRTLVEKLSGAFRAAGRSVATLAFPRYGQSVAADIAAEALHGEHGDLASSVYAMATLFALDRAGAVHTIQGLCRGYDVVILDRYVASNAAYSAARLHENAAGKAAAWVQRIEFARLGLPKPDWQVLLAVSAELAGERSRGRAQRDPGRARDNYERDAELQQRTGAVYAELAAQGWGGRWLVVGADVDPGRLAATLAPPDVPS
Experiment: In Vitro inhibition of Thymidine […] Kinase of Mycobacterium tuberculosis (TMPKm)
Summary of the method: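 Recombinant TMPKmt or human TMPKh overexpressed in E. coli. Activity was read by a coupled spectrophotometric assay (NADH, 334 nm). ATP was fixed at 0.5 mM and dTMP at 0.05 mM; analogues were varied over 0.01–4 mM.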

Question: With `Cc1cn([C@H]2C[C@H](O)[C@@H](CO)O2)c(=O)[nH]c1=O` [DOXRIBTIMINE] as the molecule, how does the Ki read?
Answer: 27 µM
